Biological target: Human immunodeficiency virus type 1 reverse transcriptase (Human immunodeficiency virus 1) (UniProt Q72547)

SMILES: CCC(C)Sc1nc(C(C)c2c(F)cccc2Cl)c(C)c(=O)[nH]1 (stereo unspecified)
- ID50: 0.3 nM

Source: ChEMBL document CHEMBL4371047, “Effect of α-Methoxy Substitution on the Anti-HIV Activity of Dihydropyrimidin-4(3 H)-ones” (J Med Chem, 2019)
